Pooled drug test results. Numbers come from NIAID ChemDB, via PubChem.

Shared fields: host cell toxicity; measure: CC50

Rows are shuffled and stem from different studies. An empty or dashed field is not shown. CCn is the concentration with n% toxicity to the cells.

SMILES,read by,cells,result
CC(C)C[C@@H]1NC(=O)[C@H](Cc2c[nH]c3ccccc23)NC(=O)C(CCCN=C(N)N)NC(=O)[C@H](CC(N)=O)NC(=O)[C@H](C(C)C)NC(=O)[C@@H](CC(C)C)NC1=O,MTT,Colorectal carcinoma,>30 µM
Oc1cc(Cl)ccc1Oc1ccc(Cl)cc1CNCc1ccc2c(c1)CCO2,fluorescence,Human foreskin fibroblasts,>10 µM
O=C(NCCc1nccc(-n2ccnc2)n1)NCc1ccc(Cl)c(Cl)c1,-,PBMC,50 µM
CC[C@@H]1/C=C(\C)C[C@H](C)C[C@H](OC)[C@H]2O[C@@](O)(C(=O)C(=O)N3CCCC[C@H]3C(=O)O[C@H](/C(C)=C/[C@H]3CC[C@H](O)[C@H](OC)C3)[C@H](C)[C@@H](O)CC1=O)[C@H](C)C[C@@H]2OC,-,P-388,28 µg/mL
CC(C)C[C@@H]1NC(=O)[C@H](Cc2c[nH]c3ccccc23)NC(=O)[C@@H](CCCCN)NC(=O)[C@H](CCCCN)NC(=O)[C@H](C(C)C)NC(=O)[C@@H](CC(C)C)NC1=O,MTT,Lung carcinoma cells,>30 µM
CSc1nc(Cl)c(C=O)c(N2CC[N+]3(CC2)CC[N+]2(CCN(c4nc(SC)nc(Cl)c4C=O)CC2)CC3)n1,-,GMK,>552 µg/mL
CC(C)C[C@@H]1NC(=O)[C@H](Cc2c[nH]c3ccccc23)NC(=O)[C@@H](CO)NC(=O)[C@H](CC(N)=O)NC(=O)[C@H](C(C)C)NC(=O)[C@@H](CC(C)C)NC1=O,MTT,Lung carcinoma cells,>30 µM
OCC(CO)OCn1c(=S)[nH]c2c(Cl)c(Cl)ccc21,-,KB,>100 µM
N#Cc1ccccc1CNc1ccc(Oc2ccc(Cl)cc2O)c(Cl)c1,fluorescence,Human foreskin fibroblasts,>10 µM
CSc1ccccc1NC(=O)NCCc1ccc2c(n1)NCCC2,-,PBMC,6.3 µM
Cc1ccc(-n2ncc3c(NCCc4ccc(Cl)cc4)ncnc32)c(C)c1,-,HUH 9B,32 µM
OCC(CO)OCn1c(Br)nc2c(Cl)cc(Cl)cc21,-,KB,>100 µM
Cc1ccc(NC(=O)NCCc2ccc3c(n2)NCCC3)cc1F,-,PBMC,2.5 µM
Cc1ccc(-n2ncc3c(NCCc4ccc(S(N)(=O)=O)cc4)ncnc32)c(C)c1,-,HUH 9B,>30 µM
OCCOCn1c(SCc2ccccc2)nc2c(Cl)c(Cl)ccc21,-,KB,35 µM
Cc1cc2c(c(C)c1OCC(C)C)c(=O)cc(-c1ccccc1)n2C,MTT,HELA-OHIO,>4 µg/mL
CC(C)C[C@@H]1NC(=O)[C@H](Cc2c[nH]c3ccccc23)NC(=O)[C@@H](C)NC(=O)[C@H](CCCCN)NC(=O)[C@H](C(C)C)NC(=O)[C@@H](CC(C)C)NC1=O,MTT,Lung carcinoma cells,>30 µM
Cc1c(-c2ccccc2)n(C)c2cc(C(C)C)c(OC(C)C)cc2c1=O,MTT,HELA-OHIO,4.9 µg/mL
O=C(NCc1ccc(Cl)cc1)c1cn2c(CCN3CCOCC3)cc3cc(CN4CCOCC4)cc(c1=O)c32,MTS,HSB-2,>17.9 µM
COc1ccc(-c2c(C)c(=O)c3c(C)c(OCC(C)C)ccc3n2C)cc1C,MTT,HELA-OHIO,>4 µg/mL
CCC(C)[C@@H]1NC(=O)[C@@H](C(C)CC)NC(=O)[C@H](CC(C)C)NC(=O)[C@H](Cc2c[nH]c3ccccc23)NC(=O)CNC(=O)[C@H](CC(N)=O)NC1=O,MTT,Colorectal carcinoma cells,>30 µM
Cc1nc(N2CCCC2)c([N+](=O)[O-])c(N2CC[N+]3(CC2)CC[N+]2(CCN(c4nc(C)nc(N5CCCC5)c4[N+](=O)[O-])CC2)CC3)n1,-,L929,>281.8 µg/mL
Oc1cc(Cl)ccc1Oc1ccc(NCc2ccccc2)cc1Cl,fluorescence,Human foreskin fibroblasts,>10 µM
CN(CCc1ccc2c(n1)NCCC2)C(=O)N(C)Cc1ccc(Cl)c(Cl)c1,-,PBMC,4.9 µM
N=c1nc(N)c2ncn([C@@H]3O[C@H](CO)[C@@H](O)[C@H]3O)c2c(N)n1,-,Daudi dividing cells,>50 µM
[O-][n+]1onc2c(N3CC[N+]4(CC3)CC[N+]3(CCN(c5ncnc6no[n+]([O-])c56)CC3)CC4)ncnc21,-,K562,>351.2 µg/mL
O=C(NCCc1ccc2c(n1)NCCCC2)Nc1cccc(F)c1,-,PBMC,50 µM
CCCC(=O)OCC1=C[C@H]2[C@@H]3C(C)(C)[C@]3(OC(=O)CCC)[C@H](OC(=O)/C=C/c3ccccc3)[C@@H](C)[C@]2(O)[C@@H]2C=C(C)C(=O)[C@@]2(O)C1,MTT,C8166,>200 µM
Cn1ccc2c(NC(=O)NCC3CCc4ccccc4N3)cccc21,-,PBMC,50 µM
CC1=C[C@H]2[C@@]3(O)[C@H](C)[C@@H](OC(=O)CCc4ccccc4)[C@]4(O)[C@H]([C@@H]3C=C(CO)C[C@]2(O)C1=O)C4(C)C,MTT,C8166,>200 µM
CC(=O)c1ccc(S(=O)(=O)NCCc2ccc3c(n2)NCCC3)cc1Cl,-,PBMC,50 µM
CCCCCCCCC(=O)O[C@@]12[C@H](OC(=O)CCCCCC3SCC4NC(=O)NC43)[C@@H](C)[C@@]3(O)[C@@H](C=C(CO)C[C@]4(O)C(=O)C(C)=C[C@@H]34)[C@@H]1C2(C)C,MTT,C8166,129 µM
CC(=O)Nc1ccc(Nc2ncnc3c2cnn3-c2ccc(C)cc2C)cc1,-,HUH 9B,>50 µM
Nc1ccn([C@@H]2CS[C@H](CO)O2)c(=O)n1,MTT,C8166,>200 µM
CCn1c(-c2ccccc2)c(C)c(=O)c2cc(OCC(C)C)ccc21,MTT,HELA-OHIO,>4 µg/mL
O=C(NCc1cccs1)c1nn2c(c1Cl)NC(c1ccco1)CC2C(F)(F)F,ATP,CA32 replicon cells,>100 µM
CN1CCc2ccc(NC(=O)NCCc3ccc4c(n3)NCCC4)cc21,-,PBMC,1.1 µM
O=C(NCc1ccc(Cl)cc1)c1cn2c3c(cc(CN4CCOCC4)cc3c1=O)OC(c1cccnc1)C2,MTS,DAUDI,>94 µM
N#C/C(=C(\N)N1CC[N+]2(CC1)CC[N+]1(CCN(/C(N)=C(/C#N)[N+](=O)[O-])CC1)CC2)[N+](=O)[O-],-,GMK,>820.3 µg/mL
CCn1c(-c2ccc(OC)c(C)c2)cc(=O)c2cc(C(C)C)ccc21,MTT,HELA-OHIO,>4 µg/mL
CN(C)c1nc2c(Cl)c(Cl)ccc2n1COC(CO)CO,-,KB,>100 µM
Cc1ccc(-n2ncc3c(NC(=O)Nc4ccc(C#N)cc4)ncnc32)c(C)c1,-,HUH 9B,19 µM
OCCOCn1c(Br)nc2cc(Cl)c(Cl)cc21,-,KB,>100 µM
O=C(NCCCc1ccc2c(n1)NCCC2)Nc1cccc(F)c1,-,PBMC,50 µM
CC(=O)Nc1ccc(Oc2ccc(Cl)cc2O)c(Cl)c1,fluorescence,Human foreskin fibroblasts,>10 µM

A second listing of 2 rows from above:

SMILES,read by,cells,result
Oc1cc(Cl)ccc1Oc1ccc(Cl)cc1CNCc1ccc2c(c1)CCO2,fluorescence,Human foreskin fibroblasts,>10 µM
CN(CCc1ccc2c(n1)NCCC2)C(=O)N(C)Cc1ccc(Cl)c(Cl)c1,-,PBMC,4.9 µM